Data from US9625458B2, “Biosensor” (priority 2002, dated 2017).

Experiment: Fluorescence emission spectra without and with saturating ligand (wavelength shift, ΔIstd, ΔRmax)
Conditions: for λmax,apo (nm) / λmax,sat (nm): emission maximum; for λmax,apo (nm): absence of ligand; for λmax,sat (nm): saturating ligand (ligand column); for ΔIstd: standard intensity change; for ΔIstd / ΔRmax: unbound vs ligand-saturated; for ΔRmax: standard ratiometric change
Outline: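 Emission spectra of bPBP–fluorophore conjugates (50–1000 nM protein, 25 °C, stirred) recorded without and with saturating ligand, using fluorophore-specific excitation. Wavelength shift, ΔIstd (intensity change at the mid-point wavelength) and ΔRmax (maximal ratiometric change over enumerated band pairs, 2 nm steps, 10 nm width) derived.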

B1: dipeptide BP R141C NBD (conjugate, UniProt P23847 29-535, looked up, variant R141C)
Dipeptide-binding protein: KTLVYCSEGSPEGFNPQLFTSGTTYDASSVPLYNRLVEFKIGTTEVIPGLAEKWEVSEDGKTYTFHLRKGVKWHDNKEFKPTRELNADDVVFSFDRQKNAQNPYHKVSGGSYEYFEGMGLPELISEVKKVDDNTVQFVLTCPEAPFLADLAMDFASILSKEYADAMMKAGTPEKLDLNPIGTGPFQLQQYQKDSRIRYKAFDGYWGTKPQIDTLVFSITPDASVRYAKLQKNECQVMPYPNPADIARMKQDKSINLMEMPGLNVGYLSYNVQKKPLDDVKVRQALTYAVNKDAIIKAVYQGAGVSAKNLIPPTMWGYNDDVQDYTYDPEKAKALLKEAGLEKGFSIDLWAMPVQRPYNPNARRMAEMIQADWAKVGVQAKIVTYEWGEYLKRAKDGEHQTVMMGWTGDNGDPDNFFATLFSCAASEQGSNYSKWCYKPFEDLIQPARATDDHNKRVELYKQAQVVMHDQAPALIIAHSTVFEPVRKEVKGYVVDPLGKHHFENVSIE
modifications: NBD label
Q: With B1 as the molecule, how does the “λmax,apo (nm)” value read?
A: The value was 542.

Q: What about the “λmax,sat (nm)” value of the same molecule?
A: Its value is 544.

Q: And the ΔIstd?
A: The ΔIstd was 0.00.

Q: And the ΔRmax?
A: The ΔRmax was 0.13.

B2: dipeptide BP S111C JPW4039 (conjugate, UniProt P23847 29-535, looked up, variant S111C)
Dipeptide-binding protein: B1 Dipeptide-binding protein with S111C, C141R
modifications: JPW4039 label
Q: With B2 as the molecule, how does the “λmax,apo (nm)” value read?
A: The value was 597.

Q: And the “λmax,sat (nm)” value?
A: The value was 598.

Q: And the ΔIstd?
A: The ΔIstd was 0.24.

Q: And the ΔRmax?
A: Its ΔRmax is 0.33.

B3: dipeptide BP S111C JPW4042 (conjugate, UniProt P23847 29-535, looked up, variant S111C)
Dipeptide-binding protein: B1 Dipeptide-binding protein with S111C, C141R
modifications: JPW4042 dye label
Q: With B3 as the molecule, how does the “λmax,apo (nm)” value read?
A: The value was 644.

Q: What about the “λmax,sat (nm)” value of the same molecule?
A: Its value is 644.

Q: And the ΔIstd?
A: The ΔIstd was 0.18.

Q: And the ΔRmax?
A: Its ΔRmax is 1.49.

B4: dipeptide BP S111C JPW4045 (conjugate, UniProt P23847 29-535, looked up, variant S111C)
Dipeptide-binding protein: B1 Dipeptide-binding protein with S111C, C141R
modifications: JPW4045 dye conjugate
Q: With B4 as the molecule, how does the “λmax,apo (nm)” value read?
A: The value was 634.

Q: What about the “λmax,sat (nm)” value of the same molecule?
A: The value was 642.

Q: What about the ΔIstd of the same molecule?
A: Its ΔIstd is 0.01.

Q: What about the ΔRmax of the same molecule?
A: The ΔRmax was 1.07.

B5: dipeptide BP S111C Acrylodan (conjugate, UniProt P23847 29-535, looked up, variant S111C)
Dipeptide-binding protein: B1 Dipeptide-binding protein with S111C, C141R
modifications: acrylodan label
Q: For B5, which “λmax,apo (nm)” value is on record?
A: The value was 499.

Q: And the “λmax,sat (nm)” value?
A: The value was 501.

Q: And the ΔIstd?
A: The ΔIstd was 0.11.

Q: What about the ΔRmax of the same molecule?
A: Its ΔRmax is 1.61.

B6: dipeptide BP S111C Fluorescein (conjugate, UniProt P23847 29-535, looked up, variant S111C)
Dipeptide-binding protein: B1 Dipeptide-binding protein with S111C, C141R
modifications: fluorescein label
Q: For B6, which “λmax,apo (nm)” value is on record?
A: Its value is 521.

Q: And the “λmax,sat (nm)” value?
A: The value was 521.

Q: What about the ΔIstd of the same molecule?
A: Its ΔIstd is 0.07.

Q: And the ΔRmax?
A: The ΔRmax was 0.18.

B7: dipeptide BP S111C NBD (conjugate, UniProt P23847 29-535, looked up, variant S111C)
Dipeptide-binding protein: B1 Dipeptide-binding protein with S111C, C141R
modifications: NBD dye conjugate
Q: For B7, which “λmax,apo (nm)” value is on record?
A: Its value is 538.

Q: What about the “λmax,sat (nm)” value of the same molecule?
A: The value was 542.

Q: What about the ΔIstd of the same molecule?
A: The ΔIstd was 0.01.

Q: And the ΔRmax?
A: The ΔRmax was 0.18.

B8: dipeptide BP T44C JPW4039 (conjugate, UniProt P23847 29-535, looked up, variant T44C)
Dipeptide-binding protein: B1 Dipeptide-binding protein with T44C, C141R
modifications: JPW4039 dye conjugate
Q: Which “λmax,apo (nm)” value does the source give for B8 here?
A: The value was 594.

Q: And the “λmax,sat (nm)” value?
A: The value was 596.

Q: And the ΔIstd?
A: Its ΔIstd is 0.13.

Q: What about the ΔRmax of the same molecule?
A: The ΔRmax was 0.33.

B9: dipeptide BP T44C JPW4042 (conjugate, UniProt P23847 29-535, looked up, variant T44C)
Dipeptide-binding protein: B1 Dipeptide-binding protein with T44C, C141R
modifications: JPW4042 label
Q: For B9, which “λmax,apo (nm)” value is on record?
A: The value was 634.

Q: What about the “λmax,sat (nm)” value of the same molecule?
A: The value was 635.

Q: And the ΔIstd?
A: The ΔIstd was 0.06.

Q: What about the ΔRmax of the same molecule?
A: Its ΔRmax is 0.30.

B10: dipeptide BP T44C JPW4045 (conjugate, UniProt P23847 29-535, looked up, variant T44C)
Dipeptide-binding protein: B1 Dipeptide-binding protein with T44C, C141R
modifications: JPW4045 dye conjugate
Q: Which results are given for B10?
A: λmax,apo (nm): 640; λmax,sat (nm): 636; ΔIstd: 0.13; ΔRmax: 0.82

B11: dipeptide BP T44C Acrylodan (conjugate, UniProt P23847 29-535, looked up, variant T44C)
Dipeptide-binding protein: B1 Dipeptide-binding protein with T44C, C141R
modifications: acrylodan conjugate
Q: With B11 as the molecule, how does the “λmax,apo (nm)” value read?
A: Its value is 499.

Q: What about the “λmax,sat (nm)” value of the same molecule?
A: Its value is 501.

Q: What about the ΔIstd of the same molecule?
A: Its ΔIstd is 0.01.

Q: And the ΔRmax?
A: Its ΔRmax is 1.52.

B12: dipeptide BP T44C Fluorescein (conjugate, UniProt P23847 29-535, looked up, variant T44C)
Dipeptide-binding protein: B1 Dipeptide-binding protein with T44C, C141R
modifications: fluorescein label
Q: For B12, which “λmax,apo (nm)” value is on record?
A: Its value is 522.

Q: What about the “λmax,sat (nm)” value of the same molecule?
A: The value was 522.

Q: What about the ΔIstd of the same molecule?
A: Its ΔIstd is 0.05.

Q: What about the ΔRmax of the same molecule?
A: The ΔRmax was 0.21.

B13: dipeptide BP T44C NBD (conjugate)
chain: MKTLVYCSEGSPEGFNPQLFTSGTTYDASSVPLYNRLVEFKIGTCEVIPGLAEKWEVSEDGKTYTFHLRKGVKWHDNKEFKPTRELNADDVVFSFDRQKNAQNPYHKVSGGSYEYFEGMGLPELISEVKKVDDNTVQFVLTRPEAPFLADLAMDFASILSKEYADAMMKAGTPEKLDLNPIGTGPFQLQQYQKDSRIRYKAFDGYWGTKPQIDTLVFSITPDASVRYAKLQKNECQVMPYPNPADIARMKQDKSINLMEMPGLNVGYLSYNVQKKPLDDVKVRQALTYAVNKDAIIKAVYQGAGVSAKNLIPPTMWGYNDDVQDYTYDPEKAKALLKEAGLEKGFSIDLWAMPVQRPYNPNARRMAEMIQADWAKVGVQAKIVTYEWGEYLKRAKDGEHQTVMMGWTGDNGDPDNFFATLFSCAASEQGSNYSKWCYKPFEDLIQPARATDDHNKRVELYKQAQVVMHDQAPALIIAHSTVFEPVRKEVKGYVVDPLGKHHFENVSIE
modifications: left off: small tags and cut ends
Q: With B13 as the molecule, how does the “λmax,apo (nm)” value read?
A: Its value is 539.

Q: And the “λmax,sat (nm)” value?
A: Its value is 536.

Q: And the ΔIstd?
A: The ΔIstd was 0.11.

Q: What about the ΔRmax of the same molecule?
A: The ΔRmax was 0.30.

B14: dipeptide BP W315C JPW4039 (conjugate, UniProt P23847 29-535, looked up, variant W315C)
Dipeptide-binding protein: B1 Dipeptide-binding protein with C141R, W315C
modifications: JPW4039 dye conjugate
Q: What does the source list for B14?
A: λmax,apo (nm): 594; λmax,sat (nm): 593; ΔIstd: 0.26; ΔRmax: 0.45

B15: dipeptide BP W315C JPW4042 (conjugate, UniProt P23847 29-535, looked up, variant W315C)
Dipeptide-binding protein: B1 Dipeptide-binding protein with C141R, W315C
modifications: JPW4042 dye label
Q: What does the source list for B15?
A: λmax,apo (nm): 645; λmax,sat (nm): 640; ΔIstd: 0.05; ΔRmax: 0.16

B16: dipeptide BP W315C JPW4045 (conjugate, UniProt P23847 29-535, looked up, variant W315C)
Dipeptide-binding protein: B1 Dipeptide-binding protein with C141R, W315C
modifications: JPW4045 label
Q: With B16 as the molecule, how does the “λmax,apo (nm)” value read?
A: Its value is 640.

Q: What about the “λmax,sat (nm)” value of the same molecule?
A: Its value is 640.

Q: What about the ΔIstd of the same molecule?
A: The ΔIstd was 0.14.

Q: What about the ΔRmax of the same molecule?
A: The ΔRmax was 0.55.

B17: dipeptide BP W315C Acrylodan (conjugate, UniProt P23847 29-535, looked up, variant W315C)
Dipeptide-binding protein: B1 Dipeptide-binding protein with C141R, W315C
modifications: acrylodan conjugate
Q: Which “λmax,apo (nm)” value does the source give for B17 here?
A: The value was 503.

Q: And the “λmax,sat (nm)” value?
A: The value was 504.

Q: What about the ΔIstd of the same molecule?
A: The ΔIstd was 0.08.

Q: And the ΔRmax?
A: The ΔRmax was 0.47.

B18: dipeptide BP W315C Fluorescein (conjugate, UniProt P23847 29-535, looked up, variant W315C)
Dipeptide-binding protein: B1 Dipeptide-binding protein with C141R, W315C
modifications: fluorescein label
Q: What does the source list for B18?
A: λmax,apo (nm): 521; λmax,sat (nm): 521; ΔIstd: 0.02; ΔRmax: 0.21

B19: arabinose BP D257C JPW4039 (conjugate, UniProt P02924 24-329, looked up, variant D257C)
L-arabinose-binding …: ENLKLGFLVKQPEEPWFQTEWKFADKAGKDLGFEVIKIAVPDGEKTLNAIDSLAASGAKGFVICTPDPKLGSAIVAKARGYDMKVIAVDDQFVNAKGKPMDTVPLVMMAATKIGERQGQELYKEMQKRGWDVKESAVMAITANELDTARRRTTGSMDALKAAGFPEKQIYQVPTKSNDIPGAFDAANSMLVQHPEVKHWLIVGMNDSTVLGGVRATEGQGFKAADIIGIGINGVDAVSELSKAQATGFYGSLLPSPCVHGYKSSEMLYNWVAKDVEPPKFTEVTDVVLITRDNFKEELEKKGLGGK
modifications: JPW4039 dye conjugate
Q: With B19 as the molecule, how does the “λmax,apo (nm)” value read?
A: Its value is 600.

Q: And the “λmax,sat (nm)” value?
A: Its value is 596.

Q: And the ΔIstd?
A: The ΔIstd was 0.38.

Q: And the ΔRmax?
A: The ΔRmax was 0.92.

B20: dipeptide BP W315C NBD (conjugate, UniProt P23847 29-535, looked up, variant W315C)
Dipeptide-binding protein: B1 Dipeptide-binding protein with C141R, W315C
modifications: NBD dye conjugate
Q: With B20 as the molecule, how does the “λmax,apo (nm)” value read?
A: The value was 546.

Q: And the “λmax,sat (nm)” value?
A: Its value is 546.

Q: What about the ΔIstd of the same molecule?
A: Its ΔIstd is 0.15.

Q: And the ΔRmax?
A: Its ΔRmax is 0.37.

Where a chain is given by its changes, count along the chain named. Numbers in names are those of the source.
